Measured values: patent US20220033460A1, “IDENTIFICATION AND USE OF T CELL EPITOPES IN DESIGNING DIAGNOSTIC AND THERAPEUTIC APPROACHES FOR COVID-19” (priority 2020, published 2022)

tested on: CD8+ T cells; format: cell-based, human; conditions: cells of the TCR clonotype specific for the epitope / HLA class I of the same line

Molecule	No. of Cells
TCR_15: TCR to … / A*02:01 (protein) TCR alpha: RKEVEQDPGPFNVPEGATVAFNCTYSNSASQSFFWYRQDCRKEPKLLMSVYSSGNEDGRFTAQLNRASQYISLLIRDSKLSDSATYLCVVNAPSGNTPLVFGKGTRLSVIANIQNPDPAVYQLRDSKSSDKSVCLFTDFDSQTNVSQSKDSDVYITDKTVLDMRSMDFKSNSAVAWSNKSDFACANAFNNSIIPEDTFFPSPESSCDVKLVEKSFETDTNLNFQNLSVIGFRILLLKVAGFNLLMTLRLWSS TCR beta: AVVSQHPSWVICKSGTSVKIECRSLDFQATTMFWYRQFPKQSLMLMATSNEGSKATYEQGVEKDKFLINHASLTLSTLTVTSAHPEDSSFYICSARDRQGQNTGELFFGEGSRLTVLEDLKNVFPPKVAVFEPSEAEISHTQKATLVCLATGFYPDHVELSWWVNGKEVHSGVSTDPQPLKEQPALNDSRYCLSSRLRVSATFWQNPRNHFRCQVQFYGLSENDEWTQDRAKPVTQIVSAEAWGRADCGFTSESYQQGVLSATILYEILLGKATLYAVLVSALVLMAMVKRKDSRG	9
TCR_106: TCR to … / A*02:01 (protein) TCR alpha: NSVTQMEGPVTLSEEAFLTINCTYTATGYPSLFWYVQYPGEGLQLLLKATKADDKGSNKGFEATYRKETTSFHLEKGSVQVSDSAVYFCALIGGSNDYKLSFGAGTTVTVRANIQNPDPAVYQLRDSKSSDKSVCLFTDFDSQTNVSQSKDSDVYITDKTVLDMRSMDFKSNSAVAWSNKSDFACANAFNNSIIPEDTFFPSPESSCDVKLVEKSFETDTNLNFQNLSVIGFRILLLKVAGFNLLMTLRLWSS TCR beta: EPEVTQTPSHQVTQMGQEVILRCVPISNHLYFYWYRQILGQKVEFLVSFYNNEISEKSEIFDDQFSVERPDGSNFTLKIRSTKLEDSAMYFCAKLVTGAVSGEQFFGPGTRLTVLEDLKNVFPPKVAVFEPSEAEISHTQKATLVCLATGFYPDHVELSWWVNGKEVHSGVSTDPQPLKEQPALNDSRYCLSSRLRVSATFWQNPRNHFRCQVQFYGLSENDEWTQDRAKPVTQIVSAEAWGRADCGFTSESYQQGVLSATILYEILLGKATLYAVLVSALVLMAMVKRKDSRG	2
TCR_13: TCR to … / A*24:02 (protein) TCR alpha: AQSVAQPEDQVNVAEGNPLTVKCTYSVSGNPYLFWYVQYPNRGLQFLLKYITGDNLVKGSYGFEAEFNKSQTSFHLKKPSALVSDSALYFCAGLGTGRRALTFGSGTRLQVQPNIQNPDPAVYQLRDSKSSDKSVCLFTDFDSQTNVSQSKDSDVYITDKTVLDMRSMDFKSNSAVAWSNKSDFACANAFNNSIIPEDTFFPSPESSCDVKLVEKSFETDTNLNFQNLSVIGFRILLLKVAGFNLLMTLRLWSS TCR beta: MGTRLFFYVALCLLWTGHVDAGITQSPRHKVTETGTPVTLRCHQTENHRYMYWYRQDPGHGLRLIHYSYGVKDTDKGEVSDGYSVSRSKTEDFLLTLESATSSQTSVYFCAISERDFQETQYFGPGTRLLVLEDLKNVFPPKVAVFEPSEAEISHTQKATLVCLATGFYPDHVELSWWVNGKEVHSGVSTDPQPLKEQPALNDSRYCLSSRLRVSATFWQNPRNHFRCQVQFYGLSENDEWTQDRAKPVTQIVSAEAWGRADCGFTSESYQQGVLSATILYEILLGKATLYAVLVSALVLMAMVKRKDSRG	9
TCR_102: TCR to … / A*02:01 (protein) TCR alpha: RKEVEQDPGPFNVPEGATVAFNCTYSNSASQSFFWYRQDCRKEPKLLMSVYSSGNEDGRFTAQLNRASQYISLLIRDSKLSDSATYLCVVNNNNDMRFGAGTRLTVKPNIQNPDPAVYQLRDSKSSDKSVCLFTDFDSQTNVSQSKDSDVYITDKTVLDMRSMDFKSNSAVAWSNKSDFACANAFNNSIIPEDTFFPSPESSCDVKLVEKSFETDTNLNFQNLSVIGFRILLLKVAGFNLLMTLRLWSS TCR beta: MGPGLLHWMALCLLGTGHGDAMVIQNPRYQVTQFGKPVTLSCSQTLNHNVMYWYQQKSSQAPKLLFHYYDKDFNNEADTPDNFQSRRPNTSFCFLDIRSPGLGDAAMYLCATTDLDSGELFFGEGSRLTVLEDLKNVFPPKVAVFEPSEAEISHTQKATLVCLATGFYPDHVELSWWVNGKEVHSGVSTDPQPLKEQPALNDSRYCLSSRLRVSATFWQNPRNHFRCQVQFYGLSENDEWTQDRAKPVTQIVSAEAWGRADCGFTSESYQQGVLSATILYEILLGKATLYAVLVSALVLMAMVKRKDSRG	2
TCR_103: TCR to … / A*02:01 (protein) TCR alpha: RKEVEQDPGPFNVPEGATVAFNCTYSNSASQSFFWYRQDCRKEPKLLMSVYSSGNEDGRFTAQLNRASQYISLLIRDSKLSDSATYLCVVNGNNDMRFGAGTRLTVKPNIQNPDPAVYQLRDSKSSDKSVCLFTDFDSQTNVSQSKDSDVYITDKTVLDMRSMDFKSNSAVAWSNKSDFACANAFNNSIIPEDTFFPSPESSCDVKLVEKSFETDTNLNFQNLSVIGFRILLLKVAGFNLLMTLRLWSS TCR beta: DAGVIQSPRHEVTEMGQEVTLRCKPISGHNSLFWYRQTMMRGLELLIYFNNNVPIDDSGMPEDRFSAKMPNASFSTLKIQPSEPRDSAVYFCARQDSNTGELFFGEGSRLTVLEDLKNVFPPKVAVFEPSEAEISHTQKATLVCLATGFYPDHVELSWWVNGKEVHSGVSTDPQPLKEQPALNDSRYCLSSRLRVSATFWQNPRNHFRCQVQFYGLSENDEWTQDRAKPVTQIVSAEAWGRADCGFTSESYQQGVLSATILYEILLGKATLYAVLVSALVLMAMVKRKDSRG	2
TCR_98: TCR to … / A*02:01 (protein) TCR alpha: QKEVEQDPGPLSVPEGAIVSLNCTYSNSAFQYFMWYRQYSRKGPELLMYTYSSGNKEDGRFTAQVDKSSKYISLFIRDSQPSDSATYLCAMSANAGNMLTFGGGTRLMVKPHIQNPDPAVYQLRDSKSSDKSVCLFTDFDSQTNVSQSKDSDVYITDKTVLDMRSMDFKSNSAVAWSNKSDFACANAFNNSIIPEDTFFPSPESSCDVKLVEKSFETDTNLNFQNLSVIGFRILLLKVAGFNLLMTLRLWSS TCR beta: EAQVTQNPRYLITVTGKKLTVTCSQNMNHEYMSWYRQDPGLGLRQIYYSMNVEVTDKGDVPEGYKVSRKEKRNFPLILESPSPNQTSLYFCASRPLTGGPLAKNIQYFGAGTRLSVLEDLKNVFPPKVAVFEPSEAEISHTQKATLVCLATGFYPDHVELSWWVNGKEVHSGVSTDPQPLKEQPALNDSRYCLSSRLRVSATFWQNPRNHFRCQVQFYGLSENDEWTQDRAKPVTQIVSAEAWGRADCGFTSESYQQGVLSATILYEILLGKATLYAVLVSALVLMAMVKRKDSRG	2
TCR_14: TCR to … / A*02:01 (protein) TCR alpha: RKEVEQDPGPFNVPEGATVAFNCTYSNSASQSFFWYRQDCRKEPKLLMSVYSSGNEDGRFTAQLNRASQYISLLIRDSKLSDSATYLCVVTRSQGNLIFGKGTKLSVKPNIQNPDPAVYQLRDSKSSDKSVCLFTDFDSQTNVSQSKDSDVYITDKTVLDMRSMDFKSNSAVAWSNKSDFACANAFNNSIIPEDTFFPSPESSCDVKLVEKSFETDTNLNFQNLSVIGFRILLLKVAGFNLLMTLRLWSS TCR beta: DARVTQTPRHKVTEMGQEVTMRCQPILGHNTVFWYRQTMMQGLELLAYFRNRAPLDDSGMPKDRFSAEMPDATLATLKIQPSEPRDSAVYFCASRASGGFNEQFFGPGTRLTVLEDLKNVFPPKVAVFEPSEAEISHTQKATLVCLATGFYPDHVELSWWVNGKEVHSGVSTDPQPLKEQPALNDSRYCLSSRLRVSATFWQNPRNHFRCQVQFYGLSENDEWTQDRAKPVTQIVSAEAWGRADCGFTSESYQQGVLSATILYEILLGKATLYAVLVSALVLMAMVKRKDSRG	9
TCR_19: TCR to … / A*24:02 (protein) TCR alpha: RKEVEQDPGPFNVPEGATVAFNCTYSNSASQSFFWYRQDCRKEPKLLMSVYSSGNEDGRFTAQLNRASQYISLLIRDSKLSDSATYLCVVNMATDKLIFGTGTRLQVFPNIQNPDPAVYQLRDSKSSDKSVCLFTDFDSQTNVSQSKDSDVYITDKTVLDMRSMDFKSNSAVAWSNKSDFACANAFNNSIIPEDTFFPSPESSCDVKLVEKSFETDTNLNFQNLSVIGFRILLLKVAGFNLLMTLRLWSS TCR beta: EPEVTQTPSHQVTQMGQEVILRCVPISNHLYFYWYRQILGQKVEFLVSFYNNEISEKSEIFDDQFSVERPDGSNFTLKIRSTKLEDSAMYFCASGGTNTGELFFGEGSRLTVLEDLKNVFPPKVAVFEPSEAEISHTQKATLVCLATGFYPDHVELSWWVNGKEVHSGVSTDPQPLKEQPALNDSRYCLSSRLRVSATFWQNPRNHFRCQVQFYGLSENDEWTQDRAKPVTQIVSAEAWGRADCGFTSESYQQGVLSATILYEILLGKATLYAVLVSALVLMAMVKRKDSRG	7
TCR_105: TCR to … / A*24:02 (protein) TCR alpha: QKEVEQDPGPLSVPEGAIVSLNCTYSNSAFQYFMWYRQYSRKGPELLMYTYSSGNKEDGRFTAQVDKSSKYISLFIRDSQPSDSATYLCAILQGAQKLVFGQGTRLTINPNIQNPDPAVYQLRDSKSSDKSVCLFTDFDSQTNVSQSKDSDVYITDKTVLDMRSMDFKSNSAVAWSNKSDFACANAFNNSIIPEDTFFPSPESSCDVKLVEKSFETDTNLNFQNLSVIGFRILLLKVAGFNLLMTLRLWSS TCR beta: GITQSPKYLFRKEGQNVTLSCEQNLNHDAMYWYRQDPGQGLRLIYYSQIVNDFQKGDIAEGYSVSREKKESFPLTVTSAQKNPTAFYLCASSLVSGELFFGEGSRLTVLEDLKNVFPPKVAVFEPSEAEISHTQKATLVCLATGFYPDHVELSWWVNGKEVHSGVSTDPQPLKEQPALNDSRYCLSSRLRVSATFWQNPRNHFRCQVQFYGLSENDEWTQDRAKPVTQIVSAEAWGRADCGFTSESYQQGVLSATILYEILLGKATLYAVLVSALVLMAMVKRKDSRG	2
TCR_107: TCR to … / B*07:02 (protein) TCR alpha: KQEVTQIPAALSVPEGENLVLNCSFTDSAIYNLQWFRQDPGKGLTSLLLIQSSQREQTSGRLNASLDKSSGRSTLYIAASQPGDSATYLCAVIGGSSNTGKLIFGQGTTLQVKPDIQNPDPAVYQLRDSKSSDKSVCLFTDFDSQTNVSQSKDSDVYITDKTVLDMRSMDFKSNSAVAWSNKSDFACANAFNNSIIPEDTFFPSPESSCDVKLVEKSFETDTNLNFQNLSVIGFRILLLKVAGFNLLMTLRLWSS TCR beta: KAGVTQTPRYLIKTRGQQVTLSCSPISGHRSVSWYQQTPGQGLQFLFEYFSETQRNKGNFPGRFSGRQFSNSRSEMNVSTLELGDSALYLCASSLAGAQQAFFGQGTRLTVVEDLNKVFPPEVAVFEPSEAEISHTQKATLVCLATGFFPDHVELSWWVNGKEVHSGVSTDPQPLKEQPALNDSRYCLSSRLRVSATFWQNPRNHFRCQVQFYGLSENDEWTQDRAKPVTQIVSAEAWGRADCGFTSVSYQQGVLSATILYEILLGKATLYAVLVSALVLMAMVKRKDF	2
